A mixed list of measured activities; the numbers were collected in NIAID ChemDB.

All rows: cytotoxicity tests; measure: CC50

Lines come from different laboratories, so protocols vary. CCn: concentration that lowers growth or viability of the cells by n%. a–b is a range or a potency band. Blank or dashed fields: not listed here.

SMILES	method	cell line	value
NC(=S)Nc1ccc2c(c1)Cc1cc(NC(=O)C3CCCCC3)ccc1-2	MTS	Ava5-EG(delta4AB)SEAP	>1 µM
Fc1cccc(NC(=S)NCCc2ccc3c(n2)NCCC3)c1	-	PBMC	1.96 µM
CCOC(=O)[C@@]1(C)CC[C@]2(C)CC[C@]3(C)C(=CC(=O)[C@@H]4[C@@]5(C)CC/C(=N\OCc6ccccc6)C(C)(C)[C@@H]5CC[C@]43C)[C@@H]2C1	MTT	CT26	76.65 µM
CO/N=C/c1ccc(OC)c(OCCC2CCN(c3ccc(Cl)nn3)CC2)c1	visual reading	MRC-5	>1 µg/mL
CCC1(Cc2ccccc2)OS(=O)(=O)C=C1OCCCCc1ccccc1	-	HEL fibroblasts	99 µM
Cc1ccc(Sc2cc(=O)n(C)c3ccc(F)cc23)cc1	-	Huh-Luc-Neo	>100 µM
Cc1cc(NC(=O)c2c(C)c(C(=O)C(=O)Nc3ccncc3N3CCOCC3)n(C)c2C)ccc1F	MTT	HepG2	>30 µM
CCOC(=O)[C@@]1(C)CC[C@]2(C)CC[C@]3(C)C(=CC(=O)[C@@H]4[C@@]5(C)CC/C(=N\OCc6c(C)noc6C)C(C)(C)[C@@H]5CC[C@]43C)[C@@H]2C1	MTT	CT26	7.39 µM
Nc1cccc(CCNC(=O)NCc2ccc(Cl)c(Cl)c2)n1	-	PBMC	50 µM
CCOC(=O)[C@@]1(C)CC[C@]2(C)CC[C@]3(C)C(=CC(=O)[C@@H]4[C@@]5(C)CC/C(=N\OCc6cccc(Cl)c6)C(C)(C)[C@@H]5CC[C@]43C)[C@@H]2C1	MTT	K562	66.5 µM
Cc1cc(NC(=O)c2c(C(C)C)c(C(=O)C(=O)NC3CCC(O)CC3)n(C)c2C)ccc1F	MTT	HepG2	>30 µM
Cc1cccc(-c2ccc(Oc3ccc(Cl)cc3Cl)c(O)c2)c1	fluorescence	Human foreskin fibroblasts	>10 µM
NC(=S)Nc1cccc(OCCCCCOc2cccc3ncccc23)c1	MTS	Ava5-EG(delta4AB)SEAP	>1 µM
CN(Cc1nc2ccccc2[nH]1)Cc1ncccc1CCC#N	MTT	C8166	>10 µM
CSc1nsc(-c2ccccc2Cl)c1C#N	-	HEP-2	5 µM
NC(=S)Nc1cccc(OCCCCCOc2ccc3ccccc3c2)c1	MTS	Ava5-EG(delta4AB)SEAP	>1 µM
CC(=O)Nc1ccc(S(=O)(=O)NCCc2ccc3c(n2)NCCC3)cc1Cl	-	PBMC	50 µM
Cc1cc(=O)oc2cc(OCc3cn(Cc4cc(=O)oc5ccc(Cl)cc45)nn3)ccc12	MTT	V79	44.24 µg/mL
Nc1nccc(OC[C@H]2CC[C@@H](CO)O2)n1	-	L1210	>250 µM
Cn1c(=O)cc(Sc2ccc(Br)cc2)c2cc(Cl)ccc21	-	Huh-Luc-Neo	>100 µM
S=C(NCCc1ccccc1)Nc1ccc2c(c1)Cc1cc(Br)ccc1-2	MTS	Ava5-EG(delta4AB)SEAP	>1 µM
CCO/N=C/c1ccc(OCCC2CCN(c3nc4ccccc4o3)CC2)cc1	neutral red	MRC-5	>0.1 µg/mL
CSc1cccc(NC(=O)NCCc2ccc3c(n2)NCCC3)c1	-	PBMC	2.4 µM
CCC1(Cc2ccccc2)OS(=O)(=O)C=C1OCc1ccc(Cl)c(Cl)c1	-	HEL fibroblasts	36.7 µM
Cc1nsc(C)c1C#N	-	L929	1000 µM
CCOC(=O)CCCOC(=O)[C@@]1(C)CC[C@]2(C)CC[C@]3(C)C(=CC[C@@H]4[C@@]5(C)CC[C@H](OC(=O)/C=C/c6cc(OC)c(OC)c(OC)c6)C(C)(C)[C@@H]5CC[C@]43C)[C@@H]2C1	-	HepG2.2.15	>1230 µM
CCO/N=C/c1ccc(OCCC2CCN(c3ccc(OC)nn3)CC2)cc1	visual reading	MRC-5	>1 µg/mL
Nc1cc(OC[C@H]2CC[C@@H](COCc3ccccc3)O2)nc(N)n1	-	CAKI-1	144 µM
CCOC(=O)[C@@]1(C)CC[C@]2(C)CC[C@]3(C)C(=CC(=O)[C@@H]4[C@@]5(C)CC/C(=N\OCc6ccsc6)C(C)(C)[C@@H]5CC[C@]43C)[C@@H]2C1	MTT	CT26	24.51 µM
Cc1cc(NC(=O)c2c(C)c(C(=O)C(=O)NC3CCC(O)CC3)n(C)c2CC2CC2)ccc1F	MTT	HepG2	>30 µM
CCOC(=O)COC(=O)[C@@]1(C)CC[C@]2(C)CC[C@]3(C)C(=CC(=O)[C@@H]4[C@@]5(C)CC[C@H](O)C(C)(C)[C@@H]5CC[C@]43C)[C@@H]2C1	-	HepG2.2.15	>1200 µM
CN(Cc1ncccc1CCC#N)Cc1nc2ccccc2n1Cc1ccccc1	MTT	C8166	>10 µM
Nc1nc(OC[C@H]2CC[C@@H](COCc3ccccc3)O2)c2[nH]cnc2n1	-	PC-3	189 µM
Cc1cc(NC(=O)c2c(C)c(C(=O)C(=O)NC3CCC(S(C)(=O)=O)CC3)n(C)c2CC2CC2)ccc1F	MTT	HepG2	>30 µM
NC(=S)Nc1ccc2c(c1)Cc1cc(NCCCc3ccccc3)ccc1-2	MTS	Ava5-EG(delta4AB)SEAP	>1 µM
COc1cccc2c1C(=O)c1c(O)c3c(c(O)c1C2=O)C[C@@](O)(C(=O)CO)C[C@@H]3O[C@H]1C[C@H](N)[C@H](O)[C@H](C)O1	MTT	HBL100	0.3 µM
Oc1c(Oc2ccc(Cl)cc2Cl)ccc(Cl)c1C(F)F	fluorescence	Human foreskin fibroblasts	>10 µM
CCC1(Cc2ccccc2)OS(=O)(=O)C=C1OCc1ccccc1Cl	-	HEL fibroblasts	38 µM
Cc1c(C(=O)Nc2ccc(F)c(Br)c2)c(C)n(C)c1C(=O)C(=O)NC(C)(C)C	MTT	HepG2	>30 µM
CCOC(=O)[C@@]1(C)CC[C@]2(C)CC[C@]3(C)C(=CC(=O)[C@@H]4[C@@]5(C)CC/C(=N\OCc6ccc(Br)cc6)C(C)(C)[C@@H]5CC[C@]43C)[C@@H]2C1	MTT	K562	25.01 µM
CC1(C)[C@@H](O)CC[C@]2(C)[C@H]3C(=O)C=C4[C@@H]5C[C@@](C)(C(=O)OC6CCC6)CC[C@]5(C)CC[C@@]4(C)[C@]3(C)CC[C@@H]12	-	HepG2.2.15	742 µM
NC(=S)Nc1cccc(OCCCCCOc2ccc(N3CCSCC3)cc2)c1	MTS	Ava5-EG(delta4AB)SEAP	>1 µM
Cc1c(C(=O)Nc2ccc(F)c(C#N)c2)c(C)n(C)c1C(=O)C(=O)NC1(C)CC(O)C1	MTT	HepG2	>30 µM
CC1(C)[C@@H](O)CC[C@]2(C)[C@H]3C(=O)C=C4[C@@H]5C[C@@](C)(C(=O)OCc6ccc(I)cc6)CC[C@]5(C)CC[C@@]4(C)[C@]3(C)CC[C@@H]12	-	HepG2.2.15	>986 µM
O=C(NCCc1ccc2c(n1)NCCC2)Nc1ccc(OCCN2CCOCC2)cc1C(F)(F)F	-	PBMC	50 µM
CC1=CSC2=NC(/C=C/c3ccc(F)cc3)=C(C(=O)/C=C/c3ccc(F)cc3)C(c3ccccc3)N12	resazurin	C1008 (Vero cells)	306 µg/mL
CCO/N=C(\C)c1ccc(OCCC2CCN(c3ccc(Cl)nn3)CC2)cc1	visual reading	MRC-5	>1 µg/mL
NCCCCN(Cc1nc2ccccc2[nH]1)C1CCCc2cccnc21	MTT	C8166	>10 µM
CSc1nsc(SC)c1C#N	-	L929	12 µM
Cc1cc(NC(=O)c2c(C)c(C(=O)C(=O)NC3CCCN(CC(=O)O)C3)n(C)c2C)ccc1F	MTT	HepG2	>30 µM
CSc1nsc(-c2cccc3ccccc23)c1C#N	-	L929	4 µM
COc1cc(/C=C/C(=O)O[C@H]2CC[C@]3(C)[C@H]4CC=C5[C@@H]6C[C@@](C)(C(=O)OCc7ccc(Br)cc7F)CC[C@]6(C)CC[C@@]5(C)[C@]4(C)CC[C@H]3C2(C)C)cc(OC)c1OC	-	HepG2.2.15	935 µM
N#Cc1c(Cl)ccc(Oc2ccc(Cl)cc2Cl)c1O	fluorescence	Human foreskin fibroblasts	>10 µM
O=C(NCCc1ccc2c(n1)NCCC2)Nc1ccccc1	-	PBMC	50 µM
CCO/N=C(\CC)c1ccc(OCCC2CCN(c3ccc(Cl)nn3)CC2)cc1	visual reading	MRC-5	>1 µg/mL
CC1=CSC2=NC(/C=C/c3ccc(OCc4ccccc4)cc3)=C(C(=O)/C=C/c3ccc(OCc4ccccc4)cc3)C(c3ccc(Cl)cc3)N12	resazurin	C1008 (Vero cells)	>500 µg/mL
Cc1ccc(Sc2cc(=O)n(C)c3cc(C)c(C)cc23)cc1	-	Huh-Luc-Neo	>100 µM
Cc1cccnc1CN(CCCCN)Cc1nc2ncccc2[nH]1	MTT	C8166	>10 µM
O=S1(=O)C=C(OCc2ccccc2)C2(CCc3ccccc3C2)O1	-	HEL fibroblasts	131 µM
COc1ccc(NC(=O)NCCc2ccc3c(n2)NCCC3)cc1	-	PBMC	1.6 µM
CCC(=O)O[C@H]1CC[C@]2(C)[C@H]3C(=O)C=C4[C@@H]5C[C@@](C)(C(=O)O)CC[C@]5(C)CC[C@@]4(C)[C@]3(C)CC[C@H]2C1(C)C	-	HepG2.2.15	99.58 µM
O=C(NCC1CCc2ccccc2N1)Nc1ccc(Br)c2ccccc12	-	PBMC	50 µM
Nc1cc(OC[C@H]2CC[C@@H](COCc3ccccc3)O2)ncn1	-	PC-3	136 µM
N#Cc1ccc(Oc2ccc(-c3ccncc3)cc2O)c(Cl)c1	fluorescence	Human foreskin fibroblasts	>10 µM
CCOC(=O)[C@@]1(C)CC[C@]2(C)CC[C@]3(C)C(=CC(=O)[C@@H]4[C@@]5(C)CC/C(=N\OCc6cc(Br)cc(Br)c6)C(C)(C)[C@@H]5CC[C@]43C)[C@@H]2C1	MTT	K562	24.34 µM
CC1(C)[C@@H](OC(=O)c2cc(=O)c3ccccc3o2)CC[C@]2(C)[C@H]3CC=C4[C@@H]5C[C@@](C)(C(=O)OCc6ccc(C(F)(F)F)cc6)CC[C@]5(C)CC[C@@]4(C)[C@]3(C)CC[C@@H]12	-	HepG2.2.15	>1170 µM
O=C(NCc1ccc(Cl)cc1)c1c[nH]c2c(F)cccc2c1=O	-	REF	>100 µM
CSc1nsc(-c2ccc(Cl)cc2Cl)c1C#N	-	L929	8 µM
Cc1ccc2c(c1)c(Sc1ccc(Cl)cc1)cc(=O)n2C	-	Huh-Luc-Neo	10–100 µM
Oc1ccc(Oc2ccc(Cl)cc2O)c(Cl)c1	fluorescence	Human foreskin fibroblasts	>10 µM
Cc1cc(NC(=O)c2c(C)c(C(=O)C(=O)NC3(C)CC(O)C3)n(C)c2-c2ccncc2)ccc1F	MTT	HepG2	>30 µM
COc1cc(OC[C@H]2CC[C@@H](COCc3ccccc3)O2)ncn1	-	PC-3	90 µM
COc1ccc(C2C(C(=O)/C=C/c3ccc4c(c3)OCO4)=C(/C=C/c3ccc4c(c3)OCO4)N=C3SC=C(C)N32)cc1	resazurin	C1008 (Vero cells)	418 µg/mL
C=C(C)[C@@H]1CCC2(C(=O)OC)CC[C@]3(C)C(CCC4[C@@](C)(CC#N)C(C(C)(C)C(=O)NCC(=O)OCC)CC[C@]43C)C12	MTT	MS	>100 µM
COc1ccc(OCCCCCOc2cccc(NC(N)=S)c2)cc1OC	MTS	Ava5-EG(delta4AB)SEAP	>1 µM
c1ccc(COC[C@@H]2CC[C@H](COc3ncnc4nc[nH]c34)O2)cc1	-	CAKI-1	139 µM
Cn1c(=O)cc(Sc2ccccc2F)c2ccccc21	-	Huh-Luc-Neo	10–100 µM
CC1=CSC2=NC(/C=C/c3ccc(Cl)cc3)=C(C(=O)/C=C/c3ccc(Cl)cc3)C(c3ccccc3)N12	resazurin	C1008 (Vero cells)	252 µg/mL
O=C(NCCCc1ccc2c(n1)NCCC2)NCc1ccc(Cl)c(Cl)c1	-	PBMC	6.1 µM
CSc1nsc(-c2ccc(C(F)(F)F)cc2)c1C#N	-	L929	14 µM